Tests used:
[1] = Selectivity index, ratio of CC50 for human MT4 cells to EC50 for wild type HIV-1 NL4-3 infected in human MT4 cells; format: toxicity, cell-based; conditions: read-out: Ratio CC50/EC50
How it was run: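 Ratio of CC50 to EC50, both from MTT readings in MT-4 cells at day 5. CC50 was taken in mock-infected cells and EC50 in cells infected with wild-type NL4-3. Values are means of at least two experiments.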

[2] = molecular target: Human immunodeficiency virus type 1 reverse transcriptase (Human immunodeficiency virus 1) (UniProt Q72547)
[3] = test system: Human immunodeficiency virus 1; test: Ratio of efavirenz EC50 to compound EC50 for wild type HIV-1 NL4-3 infected in human MT4 cells; format: functional

SMILES | selectivity ratio [1] | ID50 [2] [nM] | Ratio EC50 [3]
Cc1c([C@H](C)c2c(F)cccc2Cl)nc(SC(C)C)[nH]c1=O | > 783000 | 9 | 
CC[C@@H](C)Sc1nc([C@H](C)c2c(F)cccc2Cl)cc(=O)[nH]1 |  | 3.76 | 
CC[C@H](C)Sc1nc([C@H](C)c2c(F)cccc2Cl)c(C)c(=O)[nH]1 (racemic) | > 1.6 | 5920 | 
CC[C@H](C)Sc1nc([C@@H](C)c2c(F)cccc2Cl)cc(=O)[nH]1 |  | 547 | 
CC[C@@H](C)Sc1nc([C@@H](C)c2c(F)cccc2Cl)cc(=O)[nH]1 |  | 40.5 | 
CC[C@@H](C)Sc1nc([C@H](C)c2c(F)cccc2Cl)c(C)c(=O)[nH]1 | > 1.17e+06 | 1 | 
Cc1c(C(C)c2c(F)cccc2Cl)nc(SC(C)C)[nH]c1=O (racemic) | > 375000 |  | 175
CCCCSc1nc(C(C)c2c(F)cccc2Cl)cc(=O)[nH]1 (racemic) | > 243000 |  | 
CC[C@@H](C)Sc1nc([C@@H](C)c2c(F)cccc2Cl)c(C)c(=O)[nH]1 | > 50300 | 14 | 
Cc1c([C@@H](C)c2c(F)cccc2Cl)nc(SC(C)C)[nH]c1=O | > 169 | 3350 | 
CC[C@H](C)Sc1nc([C@@H](C)c2c(F)cccc2Cl)c(C)c(=O)[nH]1 | > 12.8 | 4660 | 
CC[C@H](C)Sc1nc([C@H](C)c2c(F)cccc2Cl)cc(=O)[nH]1 (racemic) |  | 26.9 | 
CCC(C)Sc1nc(C(C)c2c(F)cccc2Cl)c(C)c(=O)[nH]1 (racemic) | > 5000 | 0.3 | 23
CCC(C)Sc1nc(C(C)c2c(F)cccc2Cl)cc(=O)[nH]1 (racemic) |  | 8 | 
